Measured values from several laboratories, pooled; numbers as filed in NIAID ChemDB.

Shared fields: whole-cell or culture tests; agent: Aspergillus fumigatus

An empty or dashed field is not shown. ECn is the concentration giving n% inhibition of infection, replication or growth. MIC50, MIC90 and the like: level of inhibition, or share of isolates inhibited. Percent inhibition refers to the dose given; in toxicity tests it is the harm to the cells. Conditions beyond the fields shown may differ between rows.

SMILES	strain	changes	method	endpoint	tested at	result
Cc1ccc2nc(Cl)c(C3C4=C(CCCC4=O)N(c4cccnc4)C(N)C3C#N)cc2c1	MTCC 3008		broth dilution	MIC99		>1000 µg/mL
O=Cc1cc(-c2cccc(Br)c2)no1	Clinical isolates			EC50		>50 µg/mL
CCC(C)n1ncn(-c2ccc(N3CCN(c4ccc(OC[C@H]5CO[C@](Cn6cncn6)(c6ccc(Cl)cc6Cl)O5)cc4)CC3)cc2)c1=O	19 isolates			MFC90		2 µg/mL
Cc1cc(NS(=O)(=O)c2ccc(N)cc2)nc(C)n1	IFM 47450			MIC		≥256 µg/mL
CCC(C)n1ncn(-c2ccc(N3CCN(c4ccc(OC[C@H]5CO[C@](Cn6cncn6)(c6ccc(Cl)cc6Cl)O5)cc4)CC3)cc2)c1=O	35 isolates			MFC50		16 µg/mL
CC1=CC[C@@H]2[C@H](C1)C2(C)C	ATCC 46645			MLC		0.32 µg/mL
Cc1onc(-c2ccccc2Cl)c1C=O	Clinical isolates			EC50		48.76 µg/mL
COc1cc(O)c2c(c1)C(=O)c1c(cc3c(c1O)-c1c(cc(C)c(C(=O)NC(CO)C(=O)O)c1O)[C@H](OC1OC(C)C(O)C(OC4OCC(O)C(O)C4O)C1O)C3O)C2=O	35 isolates			Geometric mean MFC		86.1 µg/mL
CCC(C)n1ncn(-c2ccc(N3CCN(c4ccc(OC[C@H]5CO[C@](Cn6cncn6)(c6ccc(Cl)cc6Cl)O5)cc4)CC3)cc2)c1=O	MRCM 32221		broth dilution / visual reading	MIC100		1 µg/mL
COc1cc(-c2n[nH]c(COc3nc(C(F)(F)F)nc4ccccc34)n2)cc(OC)c1OC	MTCC 343			MIC100		12.5 µg/mL
COc1ccc(C(=O)Cn2cncn2)cc1			broth dilution	inhibition	80 µg/mL	48%
COc1cc(NS(=O)(=O)c2ccc(N)cc2)ncn1	IFM 53412			MIC		≥256 µg/mL
CCOC(=O)C1C(c2cc3cc(Cl)ccc3nc2Cl)C2=C(CCCC2=O)N(c2cccnc2)C1N	MTCC 3008		broth dilution	MIC99		500 µg/mL
CCC(C)n1ncn(-c2ccc(N3CCN(c4ccc(OC[C@H]5CO[C@](Cn6cncn6)(c6ccc(Cl)cc6Cl)O5)cc4)CC3)cc2)c1=O	35 isolates			Geometric mean MIC		0.37 µg/mL
N#CC1C(c2cc3cc(Cl)ccc3nc2Cl)C2=C(CCCC2=O)N(c2cccnc2)C1N	MTCC 3008		broth dilution	MIC99		500 µg/mL
Cc1nc(OCc2nc(-c3cccs3)n[nH]2)c2ccccc2n1	MTCC 343			MIC100		12.5 µg/mL
COC(/C=C/c1cccs1)=C1/C(=O)C=C(C)C1=O	ATCC 90906			MFC		>20 µg/mL
O=C(Cn1cncn1)c1ccc([N+](=O)[O-])cc1			broth dilution	inhibition	80 µg/mL	12%
Cc1ccc(C(C)C)cc1O	CECT2071			MIC		0.16 µg/mL
CCC(C)n1ncn(-c2ccc(N3CCN(c4ccc(OC[C@H]5CO[C@](Cn6cncn6)(c6ccc(Cl)cc6Cl)O5)cc4)CC3)cc2)c1=O	AF293	mpkC	broth dilution	inhibition	64 µg/mL	99.99%
c1ccc(-c2n[nH]c(COc3ncnc4ccccc34)n2)cc1	MTCC 343			MIC100		50 µg/mL
CC(C)C[C@H](N)C(=O)O	MRCM 32221		broth dilution	MFC100		>18000 µg/mL
Cc1onc(-c2ccc(Cl)cc2)c1C=O	Clinical isolates			EC50		>50 µg/mL
O=C(Cn1ccnc1)c1ccc(F)cc1F			broth dilution	inhibition	80 µg/mL	45%
Cc1nc(OCc2nc(-c3ccc(F)cc3)n[nH]2)c2ccccc2n1	MTCC 343			MIC100		50 µg/mL
O=Cc1cc(-c2ccccc2Cl)no1	Clinical isolates			EC50		>50 µg/mL
CCOC(=O)C1C(c2cc3ccccc3nc2Cl)C2=C(CCCC2=O)N(c2cccnc2)C1N	MTCC 3008		broth dilution	MIC99		500 µg/mL
COc1cc(NS(=O)(=O)c2ccc(N)cc2)nc(OC)n1	IFM 48051			MIC		128 µg/mL
COc1ccc(-c2n[nH]c(COc3ncnc4ccccc34)n2)cc1OC	MTCC 343			MIC100		25 µg/mL
CCN1CCC(O)(/C=C/c2ccc(Cl)cc2)C(C(=O)/C=C/c2ccc(Cl)cc2)C1	28 strains (itraconazole-resistant)			Mean MIC		5.1 µg/mL
C[C@H]1[C@H](O)[C@@H](C)/C=C/C=C/C=C/C=C/C=C/C=C/C=C/[C@H](O[C@@H]2O[C@H](C)[C@@H](O)[C@H](N)[C@@H]2O)C[C@@H]2O[C@](O)(C[C@@H](O)C[C@@H](O)CC[C@H](O)[C@@H](O)C[C@@H](O)CC(=O)O[C@H]1C)C[C@H](O)[C@H]2C(=O)O				MLC50		1 µg/mL
C[C@H]1[C@H](O)[C@@H](C)/C=C/C=C/C=C/C=C/C=C/C=C/C=C/[C@H](O[C@@H]2O[C@H](C)[C@@H](O)[C@H](N)[C@@H]2O)C[C@@H]2O[C@](O)(C[C@@H](O)C[C@@H](O)CC[C@H](O)[C@@H](O)C[C@@H](O)CC(=O)O[C@H]1C)C[C@H](O)[C@H]2C(=O)O	Isolate AF65			MFC		4 µg/mL
COc1ccc(NS(=O)(=O)c2ccc(N)cc2)nn1	IFM 51126			MIC		≥256 µg/mL

For reference, 2 entries again:

SMILES,strain,changes,method,endpoint,tested at,result
CC1=CC[C@@H]2[C@H](C1)C2(C)C,ATCC 46645,,,MLC,,0.32 µg/mL
O=C(Cn1cncn1)c1ccc([N+](=O)[O-])cc1,,,broth dilution,inhibition,80 µg/mL,12%